# Laboratory results: PMC3631186, “Structure of a Novel Shoulder-to-Shoulder p24 Dimer in Complex with the Broad-Spectrum Antibody A10F9 and Its Implication in Capsid Assembly” (PLoS ONE, 2013)
# Target: p24 of HIV-1 NL4-3 (from the proviral plasmid pNL4-3) (HIV-1 NL4-3 (gag from isolate NY5, …, UniProt P12493, strain))
# Assay: immunostaining of cells or tissue
# Conditions: one partner purified
binder,measurement,value
"A10F9 monoclonal antibody (antibody, V domains shown, also called A10F9 mAb; mAb A10F9) VH: DVKLVESGGGLVKPGGSLKLSCAASGFTFSSYTMSWVRQTPEKRLEWVAIISSGGSYTYYSDSVKGRFTISRDNAKNTLYLQMSSLKSEDTAMYYCTRDEGNGNYVEAMDYWGQGTSVTVSS VL: DIQMTQSPASLSASVGETVTITCRASGNIHNYLAWYQQKQGKSPQLLVYNAKTLADGVPSRFSGSGSGTQYSLKINSLQPEDFGSYYCQHFWSTPRTFGGGTKLEIK",binding result,binds
